Compound potency records, mixed from different reports. Data source: NIAID ChemDB in PubChem.

All rows: cytotoxicity tests; cells: CEM; endpoint: CC50

Two numbers with a dash give a range or band. Rows are shuffled and stem from different studies. CCn: concentration that lowers growth or viability of the cells by n%.

smiles	result
Cc1ccc(C)c(CS(=O)(=O)c2cccc[n+]2[O-])c1	31 µg/mL
C=C(C)[C@@H]1CC[C@]2(C(=O)NCCCCCCCC(=O)N[C@@H](CC(=O)O)c3ccccc3)CC[C@]3(C)[C@H](CC[C@@H]4[C@@]5(C)CC[C@H](O)C(C)(C)[C@@H]5CC[C@]43C)[C@@H]12	5.95 µM
Cc1ccn2c(C(SCCc3ccccc3)SCCc3ccccc3)cnc2c1	7.8 µM
CC(C)c1c(Cc2ccccc2)n(COCc2ccc(/C(O)=C/C(=O)C(=O)O)cc2)c(=O)[nH]c1=O	>10 µM
NCC1CC12C1CC3CC(C1)CC2C3	14 µg/mL
Cc1cn([C@H]2CC[C@@H](CO)S2)c(=O)[nH]c1=O	>150 µg/mL
O=C(O)C[C@@H](NC(=O)c1ccccc1SSc1ccccc1C(=O)N[C@H](CC(=O)O)C1CCCCC1)C1CCCCC1	76 µM
Cc1cn([C@@H]2O[C@@H]3CN[C@@]4(OCC(C)(C)C)CS(=O)(=O)O[C@@]34[C@H]2O)c(=O)[nH]c1=O	>250 µM
Cc1cccc(C)c1NC(=O)c1ccc(N)cc1	486 µM
C[C@]1(Cn2cnc3c(=O)[nH]c(N)nc32)[C@H](COCP(=O)(O)O)C1(F)F	>100 µM
COc1cc(OC[C@H]2CC[C@@H](COCc3ccccc3)O2)nc(N)n1	52 µM
CO[C@@H]1[C@H](O)[C@@H](CO)O[C@H]1c1ccccc1	>200 µg/mL
Nc1nc2c(ncn2[C@@H]2C=C[C@H](CO)C2)c(=O)[nH]1	>100 µM
Cc1cn([C@@H]2C[C@@H](F)[C@H](CO)O2)c(=O)[nH]c1=O	>100 µM
Cn1cc(NC(=O)c2cc(NC(=O)[C@@H]3CCC(N)=N3)c[nH]2)cc1C(=O)NCCC(=N)N	750 µM
CCCCCCCC/C=C\CCCCCCCC(=O)Oc1ccc(COP(=O)(OCc2ccc(OC(=O)CCCCCCC/C=C\CCCCCCCC)cc2)OP(=O)(O)OC[C@@H]2C=C[C@H](n3cc(C)c(=O)[nH]c3=O)O2)cc1	100 µM
Nc1ccn([C@@H]2C[C@@H](F)[C@H](CO)O2)c(=O)n1	>100 µM
CCCCCCCCCCCCCCCC(=O)Oc1ccc(COP(=O)(OCc2ccc(OC(=O)CCCCCCCCCCCCCCC)cc2)OP(=O)(O)OC[C@@H]2C=C[C@H](n3cc(C)c(=O)[nH]c3=O)O2)cc1	72 µM
Cc1cn([C@H]2C=C[C@@H](CO)O2)c(=O)[nH]c1=S	>430 µM
CC[C@H](C)[C@@H](/C=C/C(=O)O)NC(=O)c1ccccc1SSc1ccccc1C(=O)N[C@H](/C=C/C(=O)O)[C@@H](C)CC	70 µM
N[C@H]1CONC1=O	>20 µg/mL
CCCCCO[C@]12CS(=O)(=O)O[C@@]13[C@@H](CN2)O[C@@H](n1cc(C)c(=O)[nH]c1=O)[C@@H]3O[Si](C)(C)C(C)(C)C	10.1 µM
O=C(Nc1ccc(C[C@H](NC(=O)c2ccccc2SSc2ccccc2C(=O)N[C@@H](Cc2ccc(NC(=O)OCc3ccccc3)cc2)C(=O)O)C(=O)O)cc1)OCc1ccccc1	>100 µM
COc1ccc(C)cc1CS(=O)(=O)c1cccc[n+]1[O-]	70 µg/mL
CCCOC12CS(=O)(=O)OC13[C@@H](CN2)O[C@@H](n1cc(C)c(=O)[nH]c1=O)[C@@H]3O	>250 µM
CNC1CC12C1CC3CC(C1)CC2C3	75 µg/mL
CCCCCCCCCC(=O)Oc1ccc(COP(=O)(OCCC#N)OP(=O)(O)OC[C@@H]2C=C[C@H](n3cc(C)c(=O)[nH]c3=O)O2)cc1	86 µM
OC[C@@H]1CC[C@H](COc2ncnc3nc[nH]c23)O1	>250 µM
Nc1ccn([C@H]2S[C@@H](CO)C=C2F)c(=O)n1	>100 µM
C[C@]1(CO)[C@@H](Cn2cnc3c(=O)[nH]c(N)nc32)C1(F)F	>100 µM
C=C(C)[C@@H]1CC[C@]2(C(=O)NCCCCCCCC(=O)NCC(=O)O)CC[C@]3(C)[C@H](CC[C@@H]4[C@@]5(C)CC[C@H](O)C(C)(C)[C@@H]5CC[C@]43C)[C@@H]12	>3 µM
Nc1nc(N)c2ncn(CC3(CO)CC3CO)c2n1	>100 µg/mL
C=C(C)[C@@H]1CC[C@]2(C(=O)NCC(=O)O)CC[C@]3(C)[C@H](CC[C@@H]4[C@@]5(C)CC[C@H](O)C(C)(C)[C@@H]5CC[C@]43C)[C@@H]12	>3 µM
CCCC1(Cc2ccc3ccccc3c2)CC(O)=C(Sc2cc(C)ccc2C)C(=O)O1	40.1 µM
Nc1ccc(C(=O)NC23CC4CC(CC(C4)C2)C3)cc1	73.2 µM
Nc1ccn([C@H]2C=C(F)[C@@H](CO)O2)c(=O)n1	>100 µM
Cc1cn([C@@H]2O[C@@H](CO)[C@H](O)[C@H]2O)c(=O)[nH]c1=O	>1000 µM
CC[Si]1(C(C)C)O[C@H]2[C@@H](O)[C@H](c3ccccc3)O[C@@H]2CO[Si](C(C)C)(C(C)C)O1	15 µg/mL
COc1ccc2c(c1)C(=O)N(c1c(C)cccc1C)C2=O	>702 µM
CCCCCCCCCCCCCC(=O)NCC(OCC)OCC	<200 µM
Cc1cn(C2OC(CO[Si](C)(C)C(C)(C)C)C3(OS(=O)(=O)C=C3N)C2O[Si](C)(C)C(C)(C)C)c(=O)n(CC2CO2)c1=O	47 µM
CCCCO[C@]12CS(=O)(=O)O[C@@]13[C@@H](CN2)O[C@@H](n1cc(C)c(=O)[nH]c1=O)[C@@H]3O	>125 µM
Nc1nc2c(ncn2[C@H]2S[C@@H](CO)C=C2F)c(=O)[nH]1	>10.4 µM
Cc1cccc(C)c1N1C(=O)c2ccccc2C1=O	220 µM
C=CSC(NC(=O)[C@H](Cc1ccccc1)NS(=O)(=O)N1CCOCC1)C(=O)N[C@@H](CC1CCCCC1)[C@@H](O)C[C@H](C(=O)NCCCC)C(C)C	>13 µM
COc1cc(OC[C@H]2CC[C@@H](CO)O2)ncn1	>50 µM
Cc1cc(C)c(CS(=O)c2cccc[n+]2[O-])c(C)c1	35 µg/mL
O=C(Nc1ccc(Cl)cc1)N1CCCC12C1CC3CC(C1)CC2C3	3.4 µg/mL
Cc1ccn2c(C3SCCS3)cnc2c1	11 µM
Cc1cn(C2OC(CO[Si](C)(C)C(C)(C)C)C3(OS(=O)(=O)C=C3N)C2O[Si](C)(C)C(C)(C)C)c(=O)n(/C=C\CO)c1=O	44 µM
Nc1nc(Cl)nc2c1ncn2[C@H]1CC[C@@H](CO)S1	>100 µg/mL
Nc1ccnc(OC[C@H]2CC[C@@H](COCc3ccccc3)O2)n1	>250 µM
Cn1c2ccccc2c(=O)c2c(O)cccc21	5.6 µg/mL
Cc1ccc(C)c(C(C)S(=O)(=O)c2ccc(C)c[n+]2[O-])c1	≥100 µg/mL
Cn1cc(NC(=O)c2cc(NC(=O)CCCCCCCCCC(=O)Nc3cc(C(=O)Nc4cc(C(=O)NCCC(N)=[NH2+])n(C)c4)n(C)c3)cn2C)cc1C(=O)NCCC(N)=[NH2+]	57 µM
N#Cc1cc2c(cc1Cl)Sc1nccn1S2(=O)=O	1.1 µM
Nc1ncnc2c1ncn2C1OC(CO)C=C1F	>100 µM
CCO[C@]12CS(=O)(=O)O[C@@]13[C@@H](CN2)O[C@@H](n1ccc(=O)[nH]c1=O)[C@@H]3O[Si](C)(C)C(C)(C)C	111 µM
Nc1ccn([C@H]2CC[C@@H](CO)S2)c(=O)n1	>100 µg/mL
Cc1ccc2c(c1)C(=O)N(C13CC4CC(CC(C4)C1)C3)C2=O	>336 µM
Nc1ncnc2c1ncn2[C@@H]1O[C@@H](CO)[C@H](O)[C@H]1O	>1000 µM
Cc1ccc(C)c(CS(=O)(=O)c2ccccn2)c1	42 µg/mL
Nc1nccc(OC[C@H]2CC[C@@H](CO)O2)n1	>250 µM
CON(C)C(=O)[C@H](CC(C)C)NC(=O)c1ccccc1SSc1ccccc1C(=O)N[C@@H](CC(C)C)C(=O)N(C)OC	20 µM
Cn1cc(NC(=O)[C@@H]2CCC(N)=N2)cc1C(=O)NCCC(=N)N	>127 µM
Nc1nc(N)nc(OC[C@H]2CC[C@@H](COCc3ccccc3)O2)n1	>250 µM
Cc1cn([C@H]2CC[C@@H](COC(=O)c3ccccc3)O2)c(=O)[nH]c1=O	>625 µM
Nc1ccn([C@@H]2S[C@H](CO)C=C2F)c(=O)n1	>100 µM
Nc1ncnc2c1ncn2[C@H]1C[C@@H](O)[C@H](CO)O1	>1000 µM
O=C1c2ccccc2C(=O)N1C12CC3CC(CC(C3)C1)C2	>704 µM
Cc1ccc(C)c(CSc2c(Cl)ccc[n+]2[O-])c1	38 µg/mL
COc1cc(C[C@@H]2COC(=O)[C@@]2(O)Cc2ccc(O)c(OC)c2)ccc1O	4.02–5.74 µM
Nc1ccn(CC2(CO)CC2CO)c(=O)n1	>100 µg/mL
Nc1cc(OC[C@H]2CC[C@@H](CO)O2)nc(N)n1	>250 µM
CC(C)C[C@@H](/C=C/C(=O)O)NC(=O)c1ccccc1SSc1ccccc1C(=O)N[C@H](/C=C/C(=O)O)CC(C)C	53 µM
Cc1cc(Cl)cc2c1S(=O)(=O)n1c(C)cnc1S2	>200 µM
Cc1cn([C@@H]2O[C@@H]3CN[C@@]4(C#N)CS(=O)(=O)O[C@@]34[C@H]2O[Si](C)(C)C(C)(C)C)c(=O)[nH]c1=O	103 µM
Cc1cccn2c(C3SCCS3)cnc12	29 µM
C=C(C)[C@@H]1CC[C@]2(C(=O)NCCCCCCCCCCCC(=O)O)CC[C@]3(C)[C@H](CC[C@@H]4[C@@]5(C)CC[C@H](O)C(C)(C)[C@@H]5CC[C@]43C)[C@@H]12	>3 µM
Cc1ccc(C)c(CS(=O)(=O)c2cccc[n+]2[O-])c1	31 µg/mL
Cc1cn(C2OC(CO[Si](C)(C)C(C)(C)C)C3(OS(=O)(=O)C=C3N)C2O[Si](C)(C)C(C)(C)C)c(=O)n(/C=C/CO)c1=O	3.4 µM

Repeating the final 11 entries:

{"smiles": "Cc1ccc(C)c(CSc2c(Cl)ccc[n+]2[O-])c1", "result": "38 µg/mL"}
{"smiles": "COc1cc(C[C@@H]2COC(=O)[C@@]2(O)Cc2ccc(O)c(OC)c2)ccc1O", "result": "4.02–5.74 µM"}
{"smiles": "Nc1ccn(CC2(CO)CC2CO)c(=O)n1", "result": ">100 µg/mL"}
{"smiles": "Nc1cc(OC[C@H]2CC[C@@H](CO)O2)nc(N)n1", "result": ">250 µM"}
{"smiles": "CC(C)C[C@@H](/C=C/C(=O)O)NC(=O)c1ccccc1SSc1ccccc1C(=O)N[C@H](/C=C/C(=O)O)CC(C)C", "result": "53 µM"}
{"smiles": "Cc1cc(Cl)cc2c1S(=O)(=O)n1c(C)cnc1S2", "result": ">200 µM"}
{"smiles": "Cc1cn([C@@H]2O[C@@H]3CN[C@@]4(C#N)CS(=O)(=O)O[C@@]34[C@H]2O[Si](C)(C)C(C)(C)C)c(=O)[nH]c1=O", "result": "103 µM"}
{"smiles": "Cc1cccn2c(C3SCCS3)cnc12", "result": "29 µM"}
{"smiles": "C=C(C)[C@@H]1CC[C@]2(C(=O)NCCCCCCCCCCCC(=O)O)CC[C@]3(C)[C@H](CC[C@@H]4[C@@]5(C)CC[C@H](O)C(C)(C)[C@@H]5CC[C@]43C)[C@@H]12", "result": ">3 µM"}
{"smiles": "Cc1ccc(C)c(CS(=O)(=O)c2cccc[n+]2[O-])c1", "result": "31 µg/mL"}
{"smiles": "Cc1cn(C2OC(CO[Si](C)(C)C(C)(C)C)C3(OS(=O)(=O)C=C3N)C2O[Si](C)(C)C(C)(C)C)c(=O)n(/C=C/CO)c1=O", "result": "3.4 µM"}